The target in this assay is VcMshEN1-145 (wild type) (Vibrio cholerae, UniProt Q9KUV7). Description: ITC titration of wild-type VcMshEN with cyclic dinucleotides. The assay is classed as binding. The conditions noted are these: relative to wild type. In general terms: ITC needs no label: the signal is the heat of the interaction.

The chains behind the UniProt entries cited, without tags or fusion partners. Residues count along the entry.
UniProt Q9KUV7, 1-145 limits assumed: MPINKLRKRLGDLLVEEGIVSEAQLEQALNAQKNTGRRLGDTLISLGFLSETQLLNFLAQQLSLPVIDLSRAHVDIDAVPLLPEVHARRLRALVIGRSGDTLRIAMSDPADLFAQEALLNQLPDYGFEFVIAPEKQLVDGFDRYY

These results are taken from publication PMC5013675, “Nucleotide binding by the widespread high-affinity cyclic di-GMP receptor MshEN domain” (Nature Communications, 2016).

For `Nc1nc2c(ncn2[C@@H]2O[C@@H]3COP(=O)(O)O[C@H]4[C@@H](O)[C@H](n5cnc6c(=O)[nH]c(N)nc65)O[C@@H]4COP(=O)(O)O[C@H]3[C@H]2O)c(=O)[nH]1` [c-di-GMP, Cyclic dimeric GMP], the “Fold change of KD” value is 1.0.
